Data as given in PubChem BioAssay AID504761 (Drosophila RNAi Screening Center, 2011)

Aim: 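Genome-wide fly cell screen for genes dengue virus requires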 (primary screen)
Cells: D.Mel-2 cells from Drosophila
Reagent: long dsRNA against Drosophila genes
Challenge: infection with dengue virus type 2; dose and infection time not stated
Measured: 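Per well on two replicate plates, imaging gave the percent of cells positive for viral envelope protein, ranked by infection, and a nuclear count of cells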
Direction: infection score: higher = more virus-infected cells; cell count: higher = more cells in the well
Call rule: 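Low infection ranks in the two replicates (chance level up to 0.065) followed by a retest with a 1.5-fold or larger significant decrease, p below 0.05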
Calls: active = confirmed: knock-down lowers infection; inactive = not picked or not confirmed
The screen tested about 22,000 reagents; below is an unselected part of those that have a named target and a result. Over the whole deposit, 116 (0.52%) were called active. 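Calls depend on retest data that are not deposited; infection was ranked per plate without normalising between plates; the unit of the infection score is not given.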 Raw values are not corrected between plates. Unmarked entries are inactive. Names joined by + are all predicted targets of the reagent. Further read-outs or replicates are left out here. Not stated in the record: the amount of reagent, the time to read-out.

Depletion of CG31380 [DRSC15688] came out at: infection score, replicate 1 = 1.03; cell count, replicate 1 = 6201.
After knock-down of CG33109 [DRSC16533], the screen gave infection score, replicate 1 = 2.92; cell count, replicate 1 = 6069.
CG4995 [DRSC02801] showed infection score, replicate 1 = 4.13; cell count, replicate 1 = 6545.
Silencing of CR32745 (pseudo) [DRSC17442] gave: infection score, replicate 1 = 2.48; cell count, replicate 1 = 6400.
For CR32745 (pseudo) [DRSC29689], the entry reads infection score, replicate 1 = 34.2; cell count, replicate 1 = 3935.
Drsl3 (Drosomycin-like 3) [DRSC22630] gave infection score, replicate 1 = 3.2; cell count, replicate 1 = 6528.
Knock-down of Drsl3 (Drosomycin-like 3) [DRSC29261] resulted in: infection score, replicate 1 = 29.8; cell count, replicate 1 = 6131.
With knock-down of Rpn5 (Regulatory particle non-ATPase 5) [DRSC12367], the record shows infection score, replicate 1 = 5.39; cell count, replicate 1 = 2986.
Rpn5 (Regulatory particle non-ATPase 5) [DRSC28279] showed infection score, replicate 1 = 8.67; cell count, replicate 1 = 2756.
For CG34159 [DRSC23222] the deposit lists infection score, replicate 1 = 2.72; cell count, replicate 1 = 6864.
Depletion of CG13081 [DRSC02185] came out at: infection score, replicate 1 = 5.73; cell count, replicate 1 = 1309.
With knock-down of Nuf2 [DRSC03123] the results were infection score, replicate 1 = 4.22; cell count, replicate 1 = 5920.
For Uqcc1 + CG9948 [DRSC09690] the deposit lists infection score, replicate 1 = 3.58; cell count, replicate 1 = 6122.
Against CG5021 [DRSC10469], the entry reads infection score, replicate 1 = 5.29; cell count, replicate 1 = 6278.
